PubChem BioAssay AID624099, ICCB-Longwood, 2012

- Aim: 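Knock-downs relieving repression by E2 of an HPV18 LCR luciferase reporter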 (primary screen)
- System: human C33A cervical carcinoma cells (HPV-negative) stably expressing BPV1 E2 and an HPV18 LCR luciferase reporter
- Knock-down reagent: siRNA pool against human genes, 40 nM
- Duration: 72 h
- Detection: 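Per-well luciferase luminescence, z-scored on each plate against the plate mean and SD with control wells left out, then averaged across three replicate plates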
- Reading the numbers: mean z-score and z-score: higher = stronger reporter signal, weaker E2 silencing
- Rule for the call: 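Mean z ≥ 2 together with z ≥ 2 in two or more of the three replicates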
In all, the deposit lists about 21,000 reagents; this is a part drawn at random. In the full data, 497 (2.4%) got an active call. 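Higher z means weaker E2 silencing; only reporter increases were scored, and knock-downs that hurt cell survival may mask genuine repressor factors.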

Against C2orf81, the entry reads mean z-score 0.26; z-score, replicate A = 0.69; z-score, replicate B = -0.33; z-score, replicate C = 0.43; inactive.
Against CCL14, the values are mean z-score 0.79; z-score, replicate A = 0.62; z-score, replicate B = 0.84; z-score, replicate C = 0.93; inactive.
Depletion of RLIM resulted in: mean z-score 0.04; z-score, replicate A = -0.35; z-score, replicate B = 0.04; z-score, replicate C = 0.42; inactive.
ADCK1 showed mean z-score 0.34; z-score, replicate A = 0.42; z-score, replicate B = -0.24; z-score, replicate C = 0.85; inactive.
With knock-down of TTC5 the results were mean z-score 1.12; z-score, replicate A = 1.1; z-score, replicate B = 1.19; z-score, replicate C = 1.08; inactive.
NEU1 gave mean z-score -0.04; z-score, replicate A = -0.01; z-score, replicate B = 0.14; z-score, replicate C = -0.24; inactive.
For MYADM, the values are mean z-score 0.35; z-score, replicate A = 0.26; z-score, replicate B = 0.31; z-score, replicate C = 0.48; inactive.
For CPNE3 the deposit lists mean z-score -0.36; z-score, replicate A = -0.4; z-score, replicate B = -0.35; z-score, replicate C = -0.34; inactive.
Depletion of KRTAP4-7 gave: mean z-score 0.23; z-score, replicate A = 0.35; z-score, replicate B = 0.11; z-score, replicate C = 0.24; inactive.
Knock-down of ERC2 came out at: mean z-score 0.34; z-score, replicate A = 0.45; z-score, replicate B = 0.26; z-score, replicate C = 0.31; inactive.
MKS1 showed mean z-score 0.01; z-score, replicate A = -0.06; z-score, replicate B = -0.48; z-score, replicate C = 0.57; inactive.
Against PTENP1 the deposit lists mean z-score -0.62; z-score, replicate A = -0.53; z-score, replicate B = -0.7; z-score, replicate C = -0.63; inactive.
LOC388898 (retired record) showed mean z-score -1.11; z-score, replicate A = -1.1; z-score, replicate B = -0.82; z-score, replicate C = -1.42; inactive.
Silencing of C1orf159 gave: mean z-score 0.91; z-score, replicate A = 1.09; z-score, replicate B = 1.06; z-score, replicate C = 0.56; inactive.
POLK showed mean z-score -0.27; z-score, replicate A = 0.1; z-score, replicate B = -0.53; z-score, replicate C = -0.39; inactive.
OXER1 showed mean z-score -0.47; z-score, replicate A = -0.6; z-score, replicate B = -0.53; z-score, replicate C = -0.27; inactive.
With knock-down of CXCR4, the record shows mean z-score -0.79; z-score, replicate A = -1.07; z-score, replicate B = -0.67; z-score, replicate C = -0.63; inactive.
SSR3 scored mean z-score -0.9; z-score, replicate A = -0.79; z-score, replicate B = -1.14; z-score, replicate C = -0.78; inactive.
Against MBD3 the deposit lists mean z-score -0.17; z-score, replicate A = 0.18; z-score, replicate B = -0.05; z-score, replicate C = -0.63; inactive.
Knock-down of LRTOMT gave: mean z-score -0.46; z-score, replicate A = -0.38; z-score, replicate B = -0.59; z-score, replicate C = -0.39; inactive.
FUCA2 showed mean z-score -0.41; z-score, replicate A = -0.45; z-score, replicate B = -0.5; z-score, replicate C = -0.27; inactive.

Part of the list above, reformatted:
gene symbol	mean z-score	z-score, replicate A	z-score, replicate B	z-score, replicate C	activity call
MYADM	0.35	0.26	0.31	0.48	inactive
CPNE3	-0.36	-0.4	-0.35	-0.34	inactive
KRTAP4-7	0.23	0.35	0.11	0.24	inactive
